Data source: PubChem BioAssay AID504761 (Drosophila RNAi Screening Center, 2011)
Purpose: 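Insect host genes that dengue virus relies on to spread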 (primary screen). Cell system: D.Mel-2 cells from Drosophila. Knock-down reagent: long dsRNA against Drosophila genes. Conditions: infection with dengue virus type 2; dose and infection time not stated. Measured: 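Cells stained for dengue envelope protein and imaged; percent of infected cells per well on duplicate plates, ranked by infection, with stained nuclei counted for cell number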. Direction: infection score: higher = more virus-infected cells; cell count: higher = more cells in the well. Rule for the call: 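Low infection ranks in the two replicates (chance level up to 0.065) followed by a retest with a 1.5-fold or larger significant decrease, p below 0.05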. Meaning of the calls: active = confirmed: knock-down lowers infection; inactive = not picked or not confirmed.
The deposit covers about 22,000 reagents; below is an unselected part of those with a known target gene and a result. Of all reagents, 116 (0.52%) were called active. 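Calls depend on retest data that are not deposited; infection was ranked per plate without normalising between plates; the unit of the infection score is not given.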 Raw values are not corrected between plates. Unmarked entries are inactive. Not all columns of the deposit are shown. No sequences are given here. The record does not give: the amount of reagent, the time to read-out.

{"gene":"CG7601","amplicon":"DRSC14131","infection score, replicate 1":4.94,"cell count, replicate 1":3038}
{"gene":"tun (tungus)","amplicon":"DRSC05592","infection score, replicate 1":2.38,"cell count, replicate 1":6314}
{"gene":"tun (tungus)","amplicon":"DRSC07127","infection score, replicate 1":16.7,"cell count, replicate 1":5569}
{"gene":"bcn92","amplicon":"DRSC18741","infection score, replicate 1":4.04,"cell count, replicate 1":1335}
{"gene":"bcn92","amplicon":"DRSC28946","cell count, replicate 1":431}
{"gene":"Fhos (Formin homology 2 domain containing)","amplicon":"DRSC08943","infection score, replicate 1":1,"cell count, replicate 1":6221}
{"gene":"Fhos (Formin homology 2 domain containing)","amplicon":"DRSC10545","infection score, replicate 1":4.45,"cell count, replicate 1":6736}
{"gene":"Fhos (Formin homology 2 domain containing)","amplicon":"DRSC10546","infection score, replicate 1":17.2,"cell count, replicate 1":5251}
{"gene":"Fhos (Formin homology 2 domain containing)","amplicon":"DRSC10547","infection score, replicate 1":1.51,"cell count, replicate 1":6223}
{"gene":"Fhos (Formin homology 2 domain containing)","amplicon":"DRSC28627","infection score, replicate 1":8.52,"cell count, replicate 1":6148}

Looked up above.
CG7601 [DRSC14131], cell count, replicate 1: 3038
bcn92 [DRSC28946], cell count, replicate 1 = 431

The listing continues:
{"gene":"gogo (golden goal)","amplicon":"DRSC10070","infection score, replicate 1":5.43,"cell count, replicate 1":6557}
{"gene":"gogo (golden goal)","amplicon":"DRSC10071","infection score, replicate 1":9.12,"cell count, replicate 1":6680}
{"gene":"Con (Connectin)","amplicon":"DRSC08652","infection score, replicate 1":3.58,"cell count, replicate 1":6281}
{"gene":"CG9855","amplicon":"DRSC12344","infection score, replicate 1":18.7,"cell count, replicate 1":4809}
{"gene":"CG9855","amplicon":"DRSC25547","infection score, replicate 1":22.2,"cell count, replicate 1":6854}
